Experimental findings from the supplement of paper PMC9931576 are described below.

What all share (experiment): pseudovirus neutralization IC50; higher = weaker neutralization
For experiment [1], the target named is SARS-CoV-2 Omicron BA.1 spike pseudovirus. On the procedure:
(§1)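 Single-round VSV luciferase pseudovirus mixed with antibody dilutions for 1 h and put on Huh-7 cells for about a day; IC50 from the dose curve.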

The target of experiment [2] is SARS-CoV-2 Omicron BA.2 spike pseudovirus. As to the method:
as §1

Experiment [3] concerns the target SARS-CoV-2 Omicron BA.2.75 spike pseudovirus. As to the method: as §1
Experiment [4] concerns the target SARS-CoV-2 Omicron BA.5 spike pseudovirus. As to the method:
as §1

For experiment [5], the target named is SARS-CoV-2 Omicron BQ.1.1 spike pseudovirus. On the procedure: as §1
For experiment [6], the target named is SARS-CoV-2 Omicron XBB spike pseudovirus. As to the method: as §1
The target in experiment [7] is SARS-CoV-2 early D614G spike pseudovirus. On the procedure:
as §1

Human monoclonal antibodies against the spike receptor-binding domain (heavy:light variable regions). IC50 against pseudoviruses bearing the spike of naturally observed variants; lower = stronger; >10 µg/ml means not reached at the top dose. No active / inactive call. The stated detection limit is 0.0005 µg/ml; values near or below 0.001 µg/ml lie at the floor of the assay.

B1: BD55-5264 (protein)
chain 1: QVQLVQSGAEVKKPGASVKVSCKVSGYTLTKFSIHWVRQGHGKGLEWMGGFDIGEGGTIYAQKFQGRVTMTEDTSTDTSYMELSSLRSEDTAMYYCATDGEYSSGWAGVKLWGQGTLVTVSS
chain 2: DIQMTQSPSTLSASVGDRVTITCRASQSISSWLAWYQQKPGKAPKLLIYKASSLESGVPSRFSGSGSGTEFTLTISSLQPDDFATYYCQQCDSYPWTFGQGTKVEIK
Take B1: the “pseudovirus neutralization IC50” value in experiment [1], in experiment [2], in experiment [3], in experiment [4], in experiment [5] and in experiment [6] was over 10 µg/mL in each case. Besides, the “pseudovirus neutralization IC50” value in experiment [7] came out at 1.69 µg/mL.

B2: BD55-5239 (protein)
chain 1: QVQLQESGPGLVRPSQTLSLTCSVSGGSISSGTYNWAWIRQPPGKDLEWIGHIYHSGSTYYNPSLRSRVNMSVDTSKNQFSLKLSSVTAADTAVYYCARERGPIAEFDFWGQGILVTVSS
chain 2: DIQMTQSPSSVSASIGDGVTITCRASQGISSWLAWYQQRPGKAPKLLISAAFTLQSGVPSRFSARGSGTDFTLIISNLQPEDFATYYCQQANSFPPTFGQGTKLEIK
In the case of B2, the “pseudovirus neutralization IC50” value in experiment [1], in experiment [2], in experiment [3], in experiment [4], in experiment [5] and in experiment [6] was over 10 µg/mL each time. Besides, the “pseudovirus neutralization IC50” value in experiment [7] was found to be 0.324 µg/mL.

B3: BD55-5276 (protein)
chain 1: EVHLEESGGGLVHPGRSLRLSCAASGFTLDEYAMHWVRRAPGKGLEWVSGISWNSGARGYADSVKGRFTISRDNAKNSLYLQMNSLRAEDTAFYYCAKDNSHGSGTAWDWLDSWGQGTLVTVSS
chain 2: NFMLTQPHSVSESPGKTVTISCTRSSGTITNNYVQWYRQRPGSSPTTVIFEDNQRPSGVPDRFSGSIDSSSNSASLTISGLKTEDEADYYCQSHDSSNWVFGGGTKLTVL
As to B3, the “pseudovirus neutralization IC50” value in experiment [1], in experiment [2], in experiment [3], in experiment [4], in experiment [5] and in experiment [6] was over 10 µg/mL each time. Besides, the “pseudovirus neutralization IC50” value in experiment [7] worked out at 0.125 µg/mL.

B4: BD55-5248 (protein)
chain 1: QVQLVESGGGVVQPGRSLRLSCAASGFTFSSYDMYWVRQAPGKGLEWVAVISYDGSSNFYADSVKGRFTISRDNSRNTLSLQMNSLRAEDTAVYFCARERREQLTPVFDHWGQGTLVTVSS
chain 2: DIQMTQSPSSLSASVGDRVTITCRASQSISSYLNWYQQRPGKAPKLLIYSASTLESGVPSRFSGSGSGTDFTLTINSLQPEDFATYYCQQSYSTLALTFGGGTKVEIK
For B4, the “pseudovirus neutralization IC50” value in experiment [1], in experiment [2], in experiment [3], in experiment [4], in experiment [5] and in experiment [6] was over 10 µg/mL each time. The “pseudovirus neutralization IC50” value in experiment [7] is 0.859 µg/mL.

B5: BD55-1035 (protein)
chain 1: EVQLSESGGGLVQPGGSLRLSCAASGFPFSTYAMTWVRQAPGKGLEWVSVITASGGSTYYADSVKGRFTISRDNYENTLYLQMNNLRTVDTAVYYCAKTMLRSSTEVVIATFFDHWGQGILVTVSS
chain 2: DIVMTQSPDSLAVSLGERATINCKSSQSILNSSNNKNFLAWYQQKPGQPPKLLIYWASNRESGVPDRFSGSGSGTDFTLTINNLQAEDVAVYYCQQYYGTPPYTFGQGTKLEIK
Take B5: the “pseudovirus neutralization IC50” value was 0.0188 µg/mL in experiment [1]; 0.00926 µg/mL in experiment [2]; 0.00671 µg/mL in experiment [3]; over 10 µg/mL in experiment [4]; over 10 µg/mL in experiment [5]; over 10 µg/mL in experiment [6]. Besides, the “pseudovirus neutralization IC50” value in experiment [7] is 0.001 µg/mL.

B6: BD55-5305 (protein)
chain 1: QVQLVQPGSELRKPGASVKVSCKASGYSFSDFAMNWVRQAPGQGLEWMGWINTKNGDPTYAPGFTGRFVFSLDTSVSTTYLQITSLKAEDTAVYFCARDFGYYAAGSYFDYWGQGTLVSVSS
chain 2: QSVLTQPPSVSAAPGQMVTISCSGRSSIIETNYVSWYQQLPGTAPKLLIYDNYKRPSGIPDRFSVSKSGTSATLAITGLQTGDEADYYCGAWDSSLNAWVFGGGTKLTVL
In the case of B6, the “pseudovirus neutralization IC50” value in experiment [1], in experiment [2], in experiment [3], in experiment [4], in experiment [5] and in experiment [6] was over 10 µg/mL throughout. Also, the “pseudovirus neutralization IC50” value in experiment [7] stood at 1 µg/mL.

B7: BD55-5293 (protein)
chain 1: EVQLVQSGAEVKKPGESLKISCKTSGYSFISNWIGWVRQMPGKGLEWMGIIYPGDSDTRYSPSFQGQVTISVDKSISTAYLQWTSLKASDTAMYFCTRRGDYGEFGGFDGDWGQGTLVTVTS
chain 2: DIQMTQSSSSLSASVGDRVTITCRASQSTGRYLNWYQQKAGKAPKLVIYAVSSLQSGVPSRFSGSGSGTEFTLTINSLQPEDFATYYCQQTYSIPFTFGPGTKVDLK
As for B7, the “pseudovirus neutralization IC50” value was 0.875 µg/mL in experiment [1]; 1.52 µg/mL in experiment [2]; 5.25 µg/mL in experiment [3]; over 10 µg/mL in experiment [4]; over 10 µg/mL in experiment [5]; over 10 µg/mL in experiment [6]. Besides, in experiment [7], the “pseudovirus neutralization IC50” value was found to be 0.711 µg/mL.

B8: BD55-5296 (protein)
chain 1: EVQLVEAGGGLVQPGRSLRLSCTASGFTFGDHAINWVRQAPGKGLEWVGFIRTKPYGGTADYAASVKGKFIISRDDSKSIAYLQMNGLKTEDTAVYYCAREEDRGYSGYDFLDYFYGMDVWGQGTTVIVSS
chain 2: QSVLTQPPSASGTPGQRVTISCSGSNSNIGKEYVYWYQQLPGTAPKLLIYRNNQRPSGVPDRFSASKSGTSASLAISGLRSEDEADYYCAAWDDSLSTFVFATGTRVTVL
For B8, the “pseudovirus neutralization IC50” value in experiment [1] was 0.725 µg/mL; in experiment [2], over 10 µg/mL; in experiment [3] it was over 10 µg/mL; in experiment [4] it was over 10 µg/mL; in experiment [5], over 10 µg/mL; in experiment [6] it was over 10 µg/mL. For the same molecule, the “pseudovirus neutralization IC50” value in experiment [7] worked out at 0.0811 µg/mL.

B9: BD55-5300 (protein)
chain 1: QVQLVQSGAEVKKPGSSVKVSCKASGGSFTSHAVSWVRQAPGQGLEWMGVSIPLFGTAKYAQKFQGRVTITADESTSTVYMSLSNLRSGDTAVYYCARLFPNGTPTDLTAPSDYWGQGTLVTVSS
chain 2: DIQMTQSPSSLSASVGDRVTITCQASQDIGNYLNWYQQKPGKAPKLLIYDASHLETGVPSRFSGSASGTDFTLTISSLQPDDIATYYCQRYDDVPTYTFGQGTKLEIK
For the molecule B9, the “pseudovirus neutralization IC50” value in experiment [1] stood at 0.00783 µg/mL; in experiment [2], 0.00662 µg/mL; in experiment [3], 0.00792 µg/mL; in experiment [4] it was 0.00547 µg/mL; in experiment [5] it was 0.0304 µg/mL; in experiment [6] it was 0.0108 µg/mL. The “pseudovirus neutralization IC50” value in experiment [7] came out at 0.0051 µg/mL.

B10: BD55-1038 (protein)
chain 1: EVQLLESGGGLVQPGGSLRLSCAASGFTFSDYAMSWVRQAPGKALDWVAAISGDGGLRFYADSVKGRFTISRENSKSSVYLQMSGLKAEDTAIYYCVRESVWEPVGPNWFDPWGQGTLVIVSS
chain 2: DIQMTQSPSSLSAYVGDRVTITCRASQSIGNYLNWYQQKPGKAPKLLIYAASSLQSGVPVRFSGSGSGRDFTLTISGLQPEDFASYYCQQSYEAPPWTFGQGTKVEIK
With B10, the “pseudovirus neutralization IC50” value in experiment [1] was 4.4 µg/mL; in experiment [2], over 10 µg/mL; in experiment [3], over 10 µg/mL; in experiment [4], over 10 µg/mL; in experiment [5], over 10 µg/mL; in experiment [6] it was over 10 µg/mL. The “pseudovirus neutralization IC50” value in experiment [7] was over 10 µg/mL.

B11: BD55-5303 (protein)
chain 1: QVHLVQSGSELKKPGASVKVSCKASGYSFTDYPMNWVRQAPGQGLEWMGWINTNTGHPTYAQGFTGRFVFSLDTSVSTAYLQINSLKPEDTATYYCSRIAGTWWGEGKNWFDPWGQGTLVTVSS
chain 2: DIVMTQSPDSLAVSLGERATINCKSSHSVFSSPDNQNYLAWYQQKPGQPPELLIYWAFTRESGVPDRFSGSGSGTDFTLTISSLQAEDVAVYYCQQYYSSPLTFGGGTKVEIK
Turning to B11, the “pseudovirus neutralization IC50” value was 2.19 µg/mL in experiment [1]; 5.65 µg/mL in experiment [2]; over 10 µg/mL in experiment [3]; 3.34 µg/mL in experiment [4]; over 10 µg/mL in experiment [5]; over 10 µg/mL in experiment [6]. Besides, the “pseudovirus neutralization IC50” value in experiment [7] came out at 0.0013 µg/mL.

B12: BD55-5265 (protein)
chain 1: EVQLVQSGAEVKKPGESLKISCKGAGYIFTHYWIAWVRQMPGKGLEWMGIVHPGDSDTRYSPSFQAQVTISADKSINTAYLQWSSLKASDTAIYFCARHGVHSGYSGYDRWDGHYYGMDVWGQGTTVTVSA
chain 2: SYVLTQPPSVSVAPGKTARITCGGNNIGSKSVHWYQQKPGQAPVLVVYDGSERPSGIPERFSGSNSENTATLTISRVEAGDEADYYCQVWNDNSDSLVFGTGTEVTVL
Take B12: the “pseudovirus neutralization IC50” value in experiment [1], in experiment [2], in experiment [3], in experiment [4], in experiment [5] and in experiment [6] was over 10 µg/mL each time. Also, the “pseudovirus neutralization IC50” value in experiment [7] came out at 0.216 µg/mL.

B13: BD55-5242 (protein)
chain 1: QVQLVQSGAEVKKPGASVKVSCKAFGYTFNSNYIHWVRQAPGQGLEWMGVIDPSGGATSYAQKFQGRVTMTRDTSTNTVYMELSSLRSEDTAVYYCARDLGDDVSRGYSGYDFLDLYGMDVWGQGTTVTVS
chain 2: not shown
For the molecule B13, the “pseudovirus neutralization IC50” value in experiment [1] is 0.0253 µg/mL; in experiment [2], over 10 µg/mL; in experiment [3], over 10 µg/mL; in experiment [4], over 10 µg/mL; in experiment [5], over 10 µg/mL; in experiment [6], over 10 µg/mL. For the same molecule, the “pseudovirus neutralization IC50” value in experiment [7] was 0.0154 µg/mL.
